These results are taken from BindingDB's records for 11855986 (2002).

Chains of the proteins cited; added tags and fusions are not shown. Residues count along the entry.
UniProt P12392, 21-495 limits assumed: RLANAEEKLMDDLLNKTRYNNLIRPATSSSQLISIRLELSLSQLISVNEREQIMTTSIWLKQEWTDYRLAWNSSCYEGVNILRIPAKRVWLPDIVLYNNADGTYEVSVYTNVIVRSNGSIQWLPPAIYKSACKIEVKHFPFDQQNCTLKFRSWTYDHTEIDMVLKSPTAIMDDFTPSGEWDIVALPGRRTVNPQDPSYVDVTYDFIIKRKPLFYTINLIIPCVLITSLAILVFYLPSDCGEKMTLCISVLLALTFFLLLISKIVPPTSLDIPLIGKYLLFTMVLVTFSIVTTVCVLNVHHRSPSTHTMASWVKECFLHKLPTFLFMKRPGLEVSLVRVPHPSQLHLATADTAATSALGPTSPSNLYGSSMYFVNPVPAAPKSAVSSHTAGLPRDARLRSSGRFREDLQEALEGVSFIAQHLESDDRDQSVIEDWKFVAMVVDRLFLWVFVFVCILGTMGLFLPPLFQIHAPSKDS

This test deals with Neuronal acetylcholine receptor subunit beta-4 (Rattus norvegicus, UniProt P12392). In words: Binding affinity to Nicotinic acetylcholine receptor alpha3-beta4 using +/-[3H]epibatidine as radioligand in pig adrenal gland.

`CC(=O)C1=CCCC2CCC1N2` (stereo unspecified) returned a Ki of 0.019 µM.

For orientation: Ki means a dissociation constant, usually derived from enzyme kinetics or from competition with a known ligand.
